Measured values from several laboratories, pooled; numbers as filed in NIAID ChemDB.

Shared fields: growth or infection tests; organism: HIV-1

a–b is a range or a potency band. An empty or dashed field is not shown. ECn: concentration that inhibits the pathogen or its effect by n%. Conditions beyond the fields shown may differ between rows.

smiles	cells	mutations	read by	strain or isolate	endpoint	value
Cc1nc2ccc(Cl)cc2c(-c2csc3ccccc23)c1C(OC(C)C)C(=O)O	C8166	-	luciferase / reporter gene	-	EC50	<20 µM
Cc1cc(CS(=O)(=O)N(CC2CCCC2)C[C@@H](O)CN(CCc2ccccc2)C(=O)c2ccccc2)no1	CEM	-	p24	IIIB	EC90	1 µM
CCN1c2ncc(CCOc3ccc(C(=O)O)c4c3CCN(C(=O)OC)C4)cc2C(=O)N(C)c2cccnc21	C8166	RT-K103N Y181C	p24	-	EC50	<0.1 µM
CC(C)n1c(=O)c(O)c2n(c1=O)C(CCN(C)Cc1ccccc1)CN(Cc1ccc(F)cc1)C2=O	MT-4	-	p24	-	EC50	<10 µM
CCN1c2ncc(CCOc3ccc(/C=C/C(=O)O)c4ccccc34)cc2C(=O)Nc2c(C)ccnc21	C8166	-	p24	WT	EC50	<0.1 µM
CC(C)n1c(=O)c(O)c2n(c1=O)C(CCN1CCc3ccccc3C1)CN(Cc1ccc(F)cc1)C2=O	MT-4	-	p24	-	EC50	<10 µM
COc1ccc(S(=O)(=O)N(CC(C)C)CC(O)CN[C@H]2c3ccccc3CC2O)cc1	CEM	-	p24	IIIB	EC50	<1 µM
CCN1c2ncc(CCOc3ccc(S(=O)(=O)Nc4ccc(C(=O)O)cc4)cc3C)cc2C(=O)N(C)c2cccnc21	C8166	RT-K103N Y181C	p24	-	EC50	>0.05 µM
CCc1ccc(-c2c(C(OC3(C)CC3)C(=O)O)c(C)nc3ccc(Cl)cc23)cc1	C8166	-	luciferase / reporter gene	-	EC50	<20 µM
Cc1cc(S(N)(=O)=O)ccc1NC(=O)COc1ccc(Cl)cc1C(=O)c1cc(F)cc(C#N)c1	HeLa + HELA CD4+	RT-V106I Y181C	β-galactosidase	HXB2	EC50	0.011–0.1 µM
CCCCO[C@H](C(=O)O)c1c(C)ncc(-c2ccc(OCC3CC3)cn2)c1N1CCC(C)(C)CC1	MT-2	-	luminescence	NL4-3	EC50	0.0316 µM
CC(C)CN(CCC(O)CNc1cscc1S(=O)(=O)c1ccccc1)S(=O)(=O)c1ccccc1	CEM	-	p24	IIIB	EC50	<1 µM
CC(C)n1c(=O)c(O)c2n(c1=O)C(CCn1ccnc1)CN(Cc1ccc(F)cc1)C2=O	MT-4	-	p24	-	EC50	<10 µM
CCN1c2ncc(CCOc3ccc(NC(=O)c4ccc(C(=O)O)cc4)cc3C)cc2C(=O)N(C)c2cccnc21	C8166	RT-K103N Y181C	p24	-	EC50	>0.05 µM
Cc1cc(OCCCS(N)(=O)=O)ccc1NC(=O)COc1ccc(Cl)cc1C(=O)c1cc(F)cc(C(F)(F)F)c1	HeLa + HELA CD4+	RT-P225H	β-galactosidase	HXB2	EC50	<0.01 µM
Cc1nc2ccccc2c(-c2cc(F)c3c(c2C)CCCO3)c1[C@H](OC(C)(C)C)C(=O)O	MT-4	E92Q/G140S/Q148H	luminescence	NL4-3	EC50	0.022 µM
Cc1ncc(-c2ccc(OCCN3CCSCC3)cn2)c(N2CCC(C)(C)CC2)c1[C@H](OC(C)(C)C)C(=O)O	MT-2	-	luminescence	NL4-3	EC50	0.0015 µM
Cc1ccc(C)n1-c1ccc(C(=O)O)c(O)c1	MT-2	-	p24	RF X4 CLADE B	EC90	2.65 µM
Cc1cc(N2CCS(=O)CC2)ccc1NC(=O)COc1ccc(Cl)cc1C(=O)c1cccs1	MT-4	-	cytopathic effect / propidium iodide	IIIB	EC50	<0.01 µM
Cc1nc2ccc(Cl)cc2c(-c2ccc(Cl)cc2)c1C(OC(C)(C)CCl)C(=O)O	C8166	-	luciferase / reporter gene	-	EC50	<20 µM
Cc1cc2cn[nH]c2cc1NC(=O)COc1ccc(Cl)cc1C(=O)c1cccc(C#N)c1	HeLa + HELA CD4+	RT-P236L	β-galactosidase	HXB2	EC50	0.011–0.1 µM
CCc1ccc(-c2c(C(OC(C(F)(F)F)C(F)(F)F)C(=O)O)c(C)nc3ccc(Cl)cc23)cc1	C8166	-	luciferase / reporter gene	-	EC50	<20 µM
O=C1Nc2ccc(F)c(F)c2[C@@](/C=C/C2CC2)(C(F)(F)F)N1	-	RT-K103N Y181C	-	-	EC90	~0.11 µM
O=C(COc1ccc(Cl)cc1C(=O)c1ccco1)Nc1ccc2cn[nH]c2c1	HeLa + HELA CD4+	RT-Y181C	β-galactosidase	HXB2	EC50	0.011–0.1 µM
CC1(C)CC=C(c2cn(-c3nccc(C(=O)NC4CCC(N5CC6CCC(C5)O6)CC4)n3)c3ccc(F)c([C@H](OC(C)(C)C)C(=O)O)c23)CC1	MT-4	E92Q	luminescence	NL4-3	EC50	0.0044 µM
Cc1cc(C#N)cc(C(=O)c2cc(Cl)ccc2OCC(=O)Nc2cnc(S(N)(=O)=O)cc2C)c1	HeLa + HELA CD4+	RT-V108I	β-galactosidase	HXB2	EC50	<0.01 µM
COc1ccc(S(=O)(=O)N(CC(C)C)C[C@@H](O)CC(=O)N2CSCC2C(=O)NC(C)(C)C)cc1	CEM	-	p24	IIIB	EC50	<1 µM
O=C1Nc2ccc(Cl)cc2[C@@](C#CC2CC2)(C(F)(F)F)N1	-	RT-K103N V108I	-	-	EC90	~0.04 µM
Nc1nc(NC2CC2)c2ncn([C@H]3C=C[C@@H](CO)C3)c2n1	MT-4	-	p24	NL4-3 WT	EC50	<2.3 µM
Cc1ncc(-c2ccc(NCCOc3ccc(F)cc3C(=O)O)cn2)c(N2CCC(C)(C)CC2)c1[C@H](OC(C)(C)C)C(=O)O	MT-2	-	luminescence	NL4-3	EC50	6.31 µM
O=C1c2c(O)c(=O)n(-c3ccc(N4CCCCC4)cc3)c(=O)n2CCN1Cc1ccc(F)cc1	MT-4	-	p24	-	EC95	<10 µM
CCN1c2ncc(CCOc3ccc(-c4ccn(CC(=O)O)n4)cc3)cc2C(=O)N(C)c2cccnc21	C8166	-	p24	IIIB	EC50	>0.05 µM
Nc1nc(=O)n([C@H]2C=C[C@@H](CO)O2)cc1F	PBMC	RT-M184V	p24	RT-M184V XM-M184V	EC50	<1.3 µM
CCN1c2ncc(CCOc3ccc(CC(C)C(=O)O)c4ccccc34)cc2C(=O)N(C)c2ccc(Cl)nc21	C8166	-	p24	WT	EC50	<0.1 µM
Cc1ncc(-c2ccc(OCCCN3CCOCC3)cn2)c(N2CCC(C)(C)CC2)c1[C@H](OC(C)(C)C)C(=O)O	MT-2	-	luminescence	NL4-3	EC50	0.0213 µM
CCCC(C(=O)O)c1c(C)nc2ccc(Cl)cc2c1-c1ccc(F)c(F)c1	C8166	-	luciferase / reporter gene	-	EC50	<20 µM
Cc1cc(C#N)cc(C(=O)c2cc(Cl)ccc2OCC(=O)Nc2ccc(OCCCN3CC=CC3)cc2C)c1	HeLa + HELA CD4+	RT-K103N G190A	β-galactosidase	HXB2 (RT-K103N G190A) Recombinant	EC50	<0.01 µM
Cc1nn(C)cc1CCOc1ccc(-c2cnc(C)c([C@H](OC(C)(C)C)C(=O)O)c2N2CCC(C)(C)CC2)nc1	MT-2	-	luminescence	NL4-3	EC50	0.0062 µM
CCN1c2ncc(CCOc3ccc(C(=O)O)c4c3CCCC4)cc2C(=O)N(C)c2ccc(OC)nc21	C8166	RT-K103N Y181C	p24	-	EC50	<0.1 µM
CCCC(C)(C)OC(C(=O)O)c1c(C)nc2ccc(Cl)cc2c1-c1ccc(Cl)cc1	C8166	-	luciferase / reporter gene	-	EC50	<20 µM
Cc1cc(S(N)(=O)=O)ccc1NC(=O)COc1ccc(Cl)cc1C(=O)c1cc(F)cc(C(F)(F)F)c1	HeLa + HELA CD4+	RT-L100I	β-galactosidase	HXB2	EC50	<0.01 µM
COc1ccc(S(=O)(=O)N(CC(O)CN(Cc2ccccc2)C(=O)NC(C)(C)C)CC2CCCC2)cc1	CEM	-	p24	IIIB	EC90	1 µM
CS(=O)(=O)Nc1ccc(NC(=O)COc2ccc(Cl)cc2C(=O)c2ccccc2)cc1	MT-4	-	cytopathic effect / propidium iodide	IIIB	EC50	<0.01 µM
Cc1ncc(-c2cnc(OCCOc3ccccc3)c(F)c2)c(N2CCC(C)(C)CC2)c1[C@H](OC(C)(C)C)C(=O)O	MT-2	-	luminescence	NL4-3	EC50	0.0025 µM
CCN1c2ncc(CCOc3ccc(-c4cc(C(=O)O)c[n+]([O-])c4)cc3C)cc2C(=O)N(C)c2cccnc21	C8166	RT-K103N Y181C	p24	-	EC50	>0.05 µM
Cc1nc2cccc(CS(=O)(=O)N(CC3CCCC3)C[C@@H](O)CN(CCc3ccccc3)C(=O)c3ccccc3)c2o1	CEM	-	p24	IIIB	EC50	<1 µM
Cc1nc2ccccc2c(-c2ccc(Cl)cc2)c1C(OC(C)(C)C)C(=O)O	C8166	-	luciferase / reporter gene	-	EC50	<20 µM